PubChem BioAssay AID504761, Drosophila RNAi Screening Center – 2011

Screen: 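Genome-wide fly cell screen for genes dengue virus requires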 (primary screen)
Cell system: D.Mel-2 cells from Drosophila
Knock-down reagent: long dsRNA against Drosophila genes
Challenge: infection with dengue virus type 2; dose and infection time not stated
Detection: 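Cells stained for dengue envelope protein and imaged; percent of infected cells per well on duplicate plates, ranked by infection, with stained nuclei counted for cell number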
Reading the numbers: infection score: higher = more virus-infected cells; cell count: higher = more cells in the well
Active means: 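Very low infection ranking in both replicate wells (chance probability at most 0.065), then a retest showing infection dropped 1.5-fold or more at p below 0.05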
Calls: active = confirmed: knock-down lowers infection; inactive = not picked or not confirmed
The deposit covers about 22,000 reagents; below is an unselected part of those that have a named target and a result. In the full data, 116 (0.52%) are marked active. 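Calls depend on retest data that are not deposited; infection was ranked per plate without normalising between plates; the unit of the infection score is not given.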 Raw values are not corrected between plates. The numbers tell different reagents against one gene apart. Names joined by + are all predicted targets of the reagent. Not given: the amount of reagent, the time to read-out.

For Amyrel, what does the deposit list?
infection score, replicate 1: 15.2; infection score, replicate 2: 11.2; cell count, replicate 1: 6197; cell count, replicate 2: 4032; Outcome: inactive

What is on record for spas?
infection score, replicate 1: 6.26; infection score, replicate 2: 4.1; cell count, replicate 1: 6645; cell count, replicate 2: 6215; Outcome: inactive

What is on record for RabX5 #1?
infection score, replicate 1: 2; infection score, replicate 2: 2.72; cell count, replicate 1: 6191; cell count, replicate 2: 5626; Outcome: inactive

What did the screen give for RabX5 #2?
cell count, replicate 1: 400; cell count, replicate 2: 228; Outcome: inactive

With CG42518 + MED9, how do the results read?
infection score, replicate 1: 18; infection score, replicate 2: 23.9; cell count, replicate 1: 5767; cell count, replicate 2: 5352; Outcome: inactive

For CG11594, what does the deposit list?
infection score, replicate 1: 10.5; infection score, replicate 2: 21.4; cell count, replicate 1: 1532; cell count, replicate 2: 4356; Outcome: inactive

For rhi, what does the deposit list?
infection score, replicate 1: 28.8; infection score, replicate 2: 17.9; cell count, replicate 1: 5893; cell count, replicate 2: 6573; Outcome: inactive

What is on record for snoRNA:660 + Act57B?
infection score, replicate 1: 4.44; infection score, replicate 2: 14.2; cell count, replicate 1: 5383; cell count, replicate 2: 5229; Outcome: inactive

A few values from above.
Entry for Amyrel under “Outcome”: inactive
snoRNA:660 + Act57B, cell count, replicate 1 = 5383

Further reagents:
What is on record for CG10469 #1?
infection score, replicate 1: 2.3; infection score, replicate 2: 5.88; cell count, replicate 1: 5870; cell count, replicate 2: 4913; Outcome: inactive

For CG10469 #2, how do the results read?
infection score, replicate 1: 2.24; infection score, replicate 2: 3.81; cell count, replicate 1: 5978; cell count, replicate 2: 6005; Outcome: inactive

Which result is listed for Shawn + Tyler #1?
infection score, replicate 1: 7.51; infection score, replicate 2: 6.53; cell count, replicate 1: 6974; cell count, replicate 2: 6663; Outcome: inactive

Which result is listed for Shawn + Tyler #2?
infection score, replicate 1: 1.18; infection score, replicate 2: 0.26; cell count, replicate 1: 6366; cell count, replicate 2: 6581; Outcome: inactive

With CG14292, how do the results read?
infection score, replicate 1: 0.39; infection score, replicate 2: 1.42; cell count, replicate 1: 6617; cell count, replicate 2: 6140; Outcome: inactive

What did the screen give for Mettl5 + CG42374?
infection score, replicate 1: 4.06; infection score, replicate 2: 10.6; cell count, replicate 1: 6473; cell count, replicate 2: 6337; Outcome: inactive

For CG8281, how do the results read?
infection score, replicate 1: 3.81; infection score, replicate 2: 2.68; cell count, replicate 1: 6584; cell count, replicate 2: 6239; Outcome: inactive

What is on record for Gr93c?
infection score, replicate 1: 1.65; infection score, replicate 2: 5.48; cell count, replicate 1: 6838; cell count, replicate 2: 6691; Outcome: inactive

With CG13563, how do the results read?
infection score, replicate 1: 6.78; infection score, replicate 2: 3.18; cell count, replicate 1: 6683; cell count, replicate 2: 6702; Outcome: inactive

How did the screen score CG14000 + bchs?
infection score, replicate 1: 3.56; infection score, replicate 2: 3.71; cell count, replicate 1: 6097; cell count, replicate 2: 6585; Outcome: inactive

For CG15347, what was measured?
infection score, replicate 1: 2.37; infection score, replicate 2: 1.77; cell count, replicate 1: 6245; cell count, replicate 2: 6323; Outcome: inactive

With CG11741, how do the results read?
infection score, replicate 1: 10.5; infection score, replicate 2: 8.84; cell count, replicate 1: 6737; cell count, replicate 2: 5907; Outcome: inactive

With Tsr1, how do the results read?
infection score, replicate 1: 2.51; infection score, replicate 2: 8.8; cell count, replicate 1: 5743; cell count, replicate 2: 5513; Outcome: inactive
